Laboratory results reported in paper PMC4594927 (PLoS ONE, 2015).
≈ marks a conversion by molar mass, not a printed value. Read-outs that look alike come from different tables or passages of the source.

The chains behind the UniProt entries cited, without tags or fusion partners.
UniProt Q8T6T2, whole entry: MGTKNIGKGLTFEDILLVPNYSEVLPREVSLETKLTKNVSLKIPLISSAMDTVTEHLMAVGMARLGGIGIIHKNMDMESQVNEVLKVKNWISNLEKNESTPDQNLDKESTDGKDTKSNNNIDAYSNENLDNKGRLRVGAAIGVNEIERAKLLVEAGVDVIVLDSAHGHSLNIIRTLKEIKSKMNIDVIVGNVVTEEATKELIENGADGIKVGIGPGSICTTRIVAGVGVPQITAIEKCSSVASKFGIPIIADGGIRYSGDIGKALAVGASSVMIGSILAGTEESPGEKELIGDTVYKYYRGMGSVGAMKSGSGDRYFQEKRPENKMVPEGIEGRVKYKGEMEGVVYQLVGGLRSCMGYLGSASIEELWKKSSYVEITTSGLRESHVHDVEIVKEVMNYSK

Tests used:
CpIMPDH [1] = biological target: T1, CpIMPDH (Cryptosporidium parvum, UniProt Q8T6T2); settings: cited from earlier work
BaIMPDH [2] = biological target: T2, BaIMPDH (Bacillus anthracis, UniProt A0A6L8P2U9); settings: cited from earlier work
BaIMPDH [3] = biological target: T2, BaIMPDH; assay: Inhibition of BaIMPDH; assay type: biochemical
MtbIMPDH2ΔCBS = MtbIMPDH2ΔCBS (Mycobacterium tuberculosis, UniProt P9WKI7, DEL126-250/R252G); assay: Inhibition of MtbIMPDH2ΔCBS (Ki,app); assay type: biochemical; settings: read-out: K i,app; IMP 0.5 mM, NAD+ […]; average and SD of three independent determinations unless noted (P32 n = 1; Q22, Q36 n = 2)
CpIMPDH [4] = biological target: T1, CpIMPDH; assay: Inhibition of CpIMPDH; settings: read-out: CpIMPDH Kiapp; S8 Table; no reference mark; Q77 single determination
B. anthracis [5] = settings: S8 Table; cited from earlier work
B. anthracis [6] = assay: Antibacterial activity against B. anthracis (MIC); assay type: cell-based, Bacillus anthracis; settings: comparison of MIC, S8 Table
[7] = read-out: Ki,app BaIMPDH, S2 Table, footnote b
[8] = read-out: Ki,app BaIMPDH, S4 Table, footnote b
[9] = read-out: Ki,app BaIMPDH, S4 Table, no reference mark, footnote c = single determination (D50 unmarked)
[10] = read-out: B. anthracis Ki,app, S8 Table, no reference mark
[11] = read-out: CpIMPDH Kiapp, S8 Table, footnote c
[12] = read-out: B. anthracis Ki,app, S8 Table, footnote c

## COc1ccc(NC(=O)Cc2n[nH]c(=O)c3ccccc23)cc1
CpIMPDH [1]
  Ki: 1000 nM

## Clc1ccc(-n2cc(COc3ccnc4ccccc34)nn2)cc1
CpIMPDH [1]
  Ki: 400 nM
BaIMPDH [2]; [7]
  Ki: 800 nM

## CC(Oc1cc[n+]([O-])c2ccccc12)c1cn(-c2ccc(Cl)cc2)nn1 (centres unmarked)
CpIMPDH [1]
  Ki: 30 nM

## C[C@H](Oc1cccc(Cl)c1Cl)C(=O)Nc1ccc2oc(-c3nccs3)nc2c1
Mtb strain H37Rv
  antitubercular activity (active / inactive): inactive

## CC(Oc1ccnc2ccccc12)c1cn(-c2ccc(C#N)cc2)nn1 (centres unmarked)
BaIMPDH [3]; read-out: Ki,app BaIMPDH, S2 Table, single determination
  Ki: 450 nM
CpIMPDH [1]
  Ki: 140 nM

## O=C(Cc1n[nH]c(=O)c2ccccc12)Nc1ccc(Br)c(Cl)c1
CpIMPDH [1]
  Ki: 30 nM
BaIMPDH [2]; [8]
  Ki: 270 nM

## O=C(Nc1ccc(Cl)cc1)C(Oc1cccc2ccccc12)C1CC1 (centres unmarked)
CpIMPDH [1]
  Ki: > 5000 nM

## O=C(Cc1n[nH]c(=O)c2ccccc12)Nc1ccc(Cl)c(Cl)c1
BaIMPDH [3]; [9]
  Ki: 280 nM
CpIMPDH [1]
  Ki: 55 nM

## CC(Cc1ccccc1)C(=O)Nc1ccc2oc(-c3ccncc3)nc2c1 (centres unmarked)
CpIMPDH [1]
  Ki: > 5000 nM
BaIMPDH [2]; read-out: Kiapp BaIMPDH, S7 Table, second part
  Ki: > 5000 nM

## O=C(Cc1n[nH]c(=O)c2ccccc12)Nc1ccc(Br)cc1
CpIMPDH [1]
  Ki: 130 nM
BaIMPDH [2]; [8]
  Ki: 80 nM

## COc1cccc(O[C@@H](C)C(=O)Nc2ccc3oc(-c4ccncc4)nc3c2)c1OC
MtbIMPDH2ΔCBS
  Ki: 620 nM
BaIMPDH [3]; [10]
  Ki: 75 nM
Mtb strain H37Rv
  M. tuberculosis MIC: 17.3 µM
  MIC in 7H9 media + Gua: 31 ± 7 µM
  MIC in 7H9 media - Gua: 22.0 ± 9.1 µM (≈ 9.23 µg/mL)
  MIC in GAST media + Gua: 41 ± 6 µM
  MIC in GAST media - Gua: 17.3 ± 4.1 µM (≈ 7.26 µg/mL)
CpIMPDH [4]
  Ki: 50 nM

## C=C(C)c1cccc(C(C)(C)NC(=O)N(C)c2ccc(Cl)cc2)c1
BaIMPDH [3]; read-out: Ki,app BaIMPDH, S5 Table, no reference mark
  Ki: 1500 nM

## O=C(Cc1n[nH]c(=O)c2ccccc12)Nc1ccc(F)cc1
BaIMPDH [3]; [9]
  Ki: 7300 nM
CpIMPDH [1]
  Ki: > 5000 nM

## CC(Oc1ccccc1Cl)C(=O)Nc1ccc2oc(-c3ccncc3)nc2c1 (centres unmarked)
BaIMPDH [3]; [10]
  Ki: 260 nM
Mtb strain H37Rv
  M. tuberculosis MIC: 15.2 µM
  MIC in 7H9 media + Gua: 60 ± 40 µM
  MIC in 7H9 media - Gua: 19.1 ± 13.3 µM (≈ 7.52 µg/mL)
  MIC in GAST media + Gua: 38 ± 12 µM
  MIC in GAST media - Gua: 15.2 ± 8.2 µM (≈ 5.99 µg/mL)
B. anthracis [5]
  B. anthracis MIC: >50 µM
CpIMPDH [4]
  Ki: 19 nM

## CC(Oc1cccc2ccccc12)c1cn(-c2ccc(Cl)cc2)nn1 (centres unmarked)
CpIMPDH [1]
  Ki: 130 nM
BaIMPDH [2]; [7]
  Ki: 260 nM

## C[C@@H](Oc1cccc2c1ccc[n+]2[O-])c1cn(-c2ccc(Cl)cc2)nn1
CpIMPDH [1]
  Ki: 24 nM
BaIMPDH [2]; [7]
  Ki: 40 nM

## O=C(Cn1c(-c2ccccn2)nc2ccccc21)Nc1ccc2ccccc2c1
CpIMPDH [1]
  Ki: 8 nM

## CC(Oc1cccc2ccccc12)C(=O)Nc1ccc(Br)cc1 (centres unmarked)
CpIMPDH [1]
  Ki: 161 nM
BaIMPDH [2]; read-out: Ki,app BaIMPDH, S1 Table, column head footnote c, A68 single determination
  Ki: 165 nM

## CC(Oc1cc[n+]([O-])c2ccccc12)c1cn(-c2ccc(Cl)c(Cl)c2)nn1 (centres unmarked)
CpIMPDH [1]
  Ki: 18 nM
BaIMPDH [2]; [7]
  Ki: 60 nM

## CC(C(=O)Nc1ccc2oc(-c3ccncc3)nc2c1)c1ccccc1 (centres unmarked)
CpIMPDH [1]
  Ki: 120 nM

## C[C@@H](Oc1cncc2ccccc12)c1cn(-c2ccc(Cl)cc2)nn1
CpIMPDH [1]
  Ki: 9 nM
BaIMPDH [2]; [7]
  Ki: 15 nM

## CCN(CC)C(=O)c1cc(NC(=O)NC(C)(C)c2cccc(C(C)=NO)c2)ccc1Cl
MtbIMPDH2ΔCBS
  Ki: 35 nM
B. anthracis [6]
  fold more effective against B. anthracis than against Mtb: 15-28 fold
Mtb strain H37Rv
  M. tuberculosis MIC: 14.2 µM
  MIC in 7H9 media + Gua: 63 ± 13 µM
  MIC in 7H9 media - Gua: 43.5 ± 6.0 µM (≈ 19.4 µg/mL)
  MIC in GAST media + Gua: >50 µM
  MIC in GAST media - Gua: 14.2 ± 5.0 µM (≈ 6.32 µg/mL)
CpIMPDH [1]; [11]
  Ki: 25 nM
BaIMPDH [2]; [12]
  Ki: 40 nM
B. anthracis [5]
  B. anthracis MIC: 0.5 µM

## CC(=NO)c1cccc(C(C)(C)NC(=O)Nc2ccc(Cl)c(C(=O)N(C)C)c2)c1
MtbIMPDH2ΔCBS
  Ki: 13 nM
Mtb strain H37Rv
  M. tuberculosis MIC: 2.9 µM
  MIC in 7H9 media + Gua: 19 ± 6 µM
  MIC in 7H9 media - Gua: 15.7 ± 5.5 µM (≈ 6.55 µg/mL)
  MIC in GAST media + Gua: ≥40 µM
  MIC in GAST media - Gua: 2.9 ± 0.4 µM (≈ 1.21 µg/mL)
CpIMPDH [1]; [11]
  Ki: 4.2 nM
BaIMPDH [2]; [12]
  Ki: 40 nM
B. anthracis [5]
  B. anthracis MIC: 23 µM

## CC(Oc1ccnc2ccccc12)c1cn(-c2ccc(Cl)c(Cl)c2)nn1 (centres unmarked)
CpIMPDH [1]
  Ki: 20 nM

## O=C(Cn1c(-c2cscn2)nc2ccccc21)Nc1ccc2ccccc2c1
BaIMPDH [2]; read-out: Ki,app BaIMPDH, S3 Table, BaIMPDH data from ref 37
  Ki: 100 nM
